For series [1], the system named is O=C(O)[C@@H]1C[C@@H](O)CN1. Put plainly: purified protein. Particulars: 37.0 °C.
In series [2] the test system is O=C(O)[C@H]1C[C@@H](O)CN1. Put plainly: purified protein. The following applies: 37.0 °C.

Turning to “BaHyPRE (BaSeq1, PrpA) (Brucella abortus 2308)”, the Km (as a rule, the substrate concentration at which the rate is half of its maximum) in series [1] is recorded as 9.8 mM; in series [2], 10.8 mM.
On to BsHyPRE (Brucella suis 1330), for which the values for the Km in series [1] and in series [2] were 7.6 mM and 10.8 mM, respectively.
The corresponding values for “BmHyPRE (Brucella melitensis bv. 1 str. 16M)” are 9.0 mM and 12.7 mM.
The corresponding values for “BpHyPRE (Burkholderia pseudomallei K96243)” are 14.4 mM and 17.1 mM.

Source of the values: article PMC1964878.
